A mixed list of measured activities; the numbers were collected in NIAID ChemDB.

Common to all: tests on isolated targets

Percent inhibition refers to the dose given; in toxicity tests it is the harm to the cells.

| structure | target | organism | tested at | strain | mutations | measure | value |
|---|---|---|---|---|---|---|---|
| Clc1cc(CN2CCCNCCNCCCNCC2)cc(Cl)n1 | CXCR4 | - | - | - | CXCR4-H113A | IC50 | 2.02 µM |
| Nc1nc(N)c2c(n1)CCC(Cc1ccc(Cl)c(Cl)c1)C2 | Dihydrofolate reductase | Cryptosporidium parvum | - | TYPE 1 | - | IC50 | 0.065 µM |
| O=C(Nc1nnc(NCCC(c2ccccc2)c2ccccc2)s1)c1ccc([N+](=O)[O-])o1 | Polymerase | Human cytomegalovirus | - | - | - | IC50 | >25 µM |
| O=C(O)CCN1C(=O)C(=Cc2ccc(-c3ccccc3C(F)(F)F)o2)SC1=S | NS5 polymerase | Bovine viral diarrhea virus | - | - | - | IC50 | ≤1 µM |
| OCc1ccc(-c2cncc(N3CCN(c4ccc(F)cc4F)CC3)n2)cc1 | UL97 kinase | Cytomegalovirus | 10 µM | - | - | inhibition | >15% |
| Nc1nc(N)c2nc(CN3c4ccccc4Sc4ccccc43)cnc2n1 | Dihydrofolate reductase | Cryptosporidium parvum | - | TYPE 2 | - | IC50 | 1.8 µM |
| O=C(O)CCN1C(=O)C(=Cc2ccc(-c3cccs3)s2)SC1=S | NS5 polymerase | Bovine viral diarrhea virus | - | - | - | IC50 | ≤1 µM |
| O=C(Nc1nnc(NCCc2c[nH]c3ccccc23)s1)c1ccc(C(F)(F)F)cc1 | Polymerase | Human cytomegalovirus | - | - | - | IC50 | >25 µM |
| O=C(O)CN1C(=O)C(=Cc2ccc(-c3cc(C(F)(F)F)ccc3Cl)o2)SC1=S | NS5 polymerase | Bovine viral diarrhea virus | - | - | - | IC50 | ≤1 µM |
| COc1cc(CNc2ccc3nc(N)nc(N)c3c2Cl)cc(OC)c1OC | Dihydrofolate reductase | Cryptosporidium parvum | - | TYPE 2 | - | IC50 | 0.027 µM |
| CN(C)c1cccc(-c2cncc(N3CCN(c4ccncc4)CC3)n2)c1 | UL97 kinase | Cytomegalovirus | 10 µM | - | - | inhibition | >15% |
| COc1cc(CCNc2ccc3nc(N)nc(N)c3c2Cl)cc(OC)c1OC | Dihydrofolate reductase | Cryptosporidium parvum | - | TYPE 1 | - | IC50 | >10 µM |
| CCOc1ccc2ccccc2c1C(=O)Nc1nnc(NCc2ccc(Cl)c(Cl)c2)s1 | Polymerase | Human cytomegalovirus | - | - | - | IC50 | >25 µM |
| COc1cc(CCN2CCc3nc(N)nc(N)c3C2)cc(OC)c1OC | Dihydrofolate reductase | Cryptosporidium parvum | - | TYPE 2 | - | IC50 | >10 µM |
| O=C(Nc1nnc(NCc2ccco2)s1)c1c(Cl)cccc1Cl | Polymerase | Human cytomegalovirus | - | - | - | IC50 | >25 µM |
| FC(F)(F)c1ccc(N2CCN(c3cncc(-c4ccoc4)n3)CC2)cc1 | UL97 kinase | Cytomegalovirus | 10 µM | - | - | inhibition | >15% |
| O=Cc1ccc(C=C2SC(=S)N(c3ccc(C(=O)O)cc3)C2=O)o1 | NS5 polymerase | Bovine viral diarrhea virus | - | - | - | IC50 | ≤1 µM |
| CN(Cc1ccc2nc(N)nc(N)c2n1)c1ccc(C(=O)NC(CO)CCO)cc1 | Dihydrofolate reductase | Cryptosporidium parvum | - | TYPE 2 | - | IC50 | 2.4 µM |
| COc1ccc(-c2cncc(N3CCN(c4cccc(Cl)c4)CC3)n2)cc1OC | UL97 kinase | Cytomegalovirus | - | - | - | IC50 | <10 µM |
| CC(C)c1cc(C(C)C)c(C(=O)Nc2nnc(NCCCNC3CCCCC3)s2)c(C(C)C)c1 | Polymerase | Human cytomegalovirus | - | - | - | IC50 | >25 µM |
| CC(=O)c1ccc(-c2cncc(N3CCN(c4cccc(C)c4C)CC3)n2)cc1 | UL97 kinase | Cytomegalovirus | - | - | - | IC50 | <100 µM |
| COc1cc(CCc2cccc3nc(N)nc(N)c23)cc(OC)c1OC | Dihydrofolate reductase | Cryptosporidium parvum | - | TYPE 1 | - | IC50 | >10 µM |

A second listing of 3 rows from above:

CCOc1ccc2ccccc2c1C(=O)Nc1nnc(NCc2ccc(Cl)c(Cl)c2)s1 ; target: Polymerase ; organism: Human cytomegalovirus ; measure: IC50 ; value: >25 µM
CN(Cc1ccc2nc(N)nc(N)c2n1)c1ccc(C(=O)NC(CO)CCO)cc1 ; target: Dihydrofolate reductase ; organism: Cryptosporidium parvum ; strain: TYPE 2 ; measure: IC50 ; value: 2.4 µM
Clc1cc(CN2CCCNCCNCCCNCC2)cc(Cl)n1 ; target: CXCR4 ; mutations: CXCR4-H113A ; measure: IC50 ; value: 2.02 µM

An empty or dashed field is not shown. Conditions beyond the fields shown may differ between rows. ICn is the concentration giving n% inhibition.